Measurements: US8173673B2, “Biofilm-inhibiting effect and anti-infective activity of N,C-linked aryl isoquinolines and the use thereof” (Julius-Maximilians-Universitaet Wuerzburg, priority 2006, dated 2012)

Experiments:
Assay type in all cases: cell-based
[1] = test system: Leishmania major-promastigotes (MHOM/IL81/FE/BNI); assay: Alamar Blue activity test against Leishmania major promastigotes; conditions: ratio of cytotoxicity against J774.1 macrophages to activity against Leishmania major
Description: Leishmania major-promastigotes (MHOM/IL81/FE/BNI) were cultivated in blood agar-cultures at 26° C., 5% CO2, and 95% humidity. For the experiment, the promastigotes were washed twice with saline phosphate buffer (PBS) and subsequently suspended (10^8 cells/ml) in Click-RPMI-1640-medium without phenol red, spiked with 10% FCS, 2 mM L-glutamine, 1.0 mM HEPES-buffer, pH 7.2, 100 μg/ml penicillin, […] gentamycin, 7.5% NaHCO3 and 50 μM 2-mercaptoethanol (culture medium). For the determination of activity, 200 μl of the promastigote-suspension in microtiter plates were each incubated with the compounds in a geometric series of dilutions for 24 hours at 26° C., 5% CO2, and 95% humidity. Subsequently, 20 μl Alamar Blue (Trinova Biochem, Gieβen, Germany) were added to each of the microcultures, and the cultures were incubated further. Cultures that only contained medium and the compound, or only cellular suspension (without compound), served as controls. The optical density was measured after another 24 hours with an ELISA-reader at the wave lengths 550 nm and 630 nm. The IC50-values of the compounds were calculated through linear interpolation (J. Mikes, D. Steverding. Parasitol. Int. 2000, 48, 265-269). […]

[2] = test system: Trypanosoma brucei brucei strain TC-221; assay: Alamar Blue anti-trypanosome test, bloodstream forms; conditions: ratio of cytotoxicity (J774.1 macrophages) to activity against Trypanosoma brucei brucei
Description: Bloodstream-forms of the strain TC-221 of Trypanosoma brucei brucei were cultivated in enriched Baltz-culture medium in an atmosphere von 5% CO2 at 37° C. For activity determinations, a defined number of pathogens (10^4 trypanosomes per ml) were incubated in 96-well-plates with the compounds in different concentrations for 48 to 72 hours. The effect of the drugs was quantifiable using the ED50-values with linear interpolation. The trypanocidal activity of the test compounds was determined through measuring absorption on an MR 700 microplate reader (test wavelength 550 nm, reference wavelength 630 nm) by means of Alamar Blue®, an indicator of metabolic cellular functions. The addition of the dye took place 24 hours after starting the incubation. The color change of Alamar Blue® as used in this absorption measurements is based on reduction processes involving NADH or NADH-dependent enzymes. Incubation times and the concentrations of dye as required correlate with the metabolic activities of the trypanosomes. The MIC-value (minimum inhibitory concentration) was determined microscopically through counting of living cells in Neubauer-counting chambers. Suramine Na served both as positive control and reference.
The anti-trypanosomal activities of the compounds of the general structures 1-3 were studied based on a series of examples according to the above-described methods. The therapeutic index is the ratio of the cytoxicity (J774.1 macrophages) to the activities against Trypanosoma brucei brucei.

[3] = test system: Plasmodium falciparum strain K1; assay: [3H]-hypoxanthine-inclusion-test, anti-plasmodium activity; conditions: ratio of IC50 for rat myoblasts (L-6-cells) to IC50 for Plasmodium falciparum
Description: For the determination of the anti-plasmodium activities, cultures of Plasmodium falciparum strain K1 (resistant against chloroquine and pyrimethamine) were used. A modification (R. G. Ridley, W. Hofheinz, if Matile, C. Jacquet, A. Dorn, R. Masciadri, S. Jolidon, W. F. Richter, A. Guenzi, M. A. Girometta, H. Urwyler, W. Huber, S. Thaitong, W. Peters, Antimicrob. Agents Chemother. 1996, 40, 1846-1854) of the [^3H]-hypoxanthine-inclusion-test (R. E. Desjardins, C. J. Canfield, D. Haynes, J. Chulay, Antimicrob. Agents Chemother. 1979, 16, 710-718) was used. Human red blood cells infected with P. falciparum (0.3% infection) at a hematocrit of 2.5% (volume fraction of the red blood cells) in RPMI 1640 medium with the serum replacement Albumax II (5 g/L) were incubated with serial dilutions of the drugs in microtiter plates for 48 hours at 37° C. under a CO2-enriched and O2-reduced atmosphere. Then, 0.5 μCi [^3H]-hypoxanthine were added to each well of the microtiter plate, and after a further 24 hours of incubation time the wells were harvested with a Betaplate Cell Harvester onto glass fiber filters, and lysed with distilled water. The incorporation of radio-labeled hypoxanthine (which correlates with the quantity of living parasites) was determined using a scintillation counter. The IC50 value was determined from sigmoidal inhibition curves. The tests were performed in duplicate, and repeated at least once. Parasite cultures without additive served as control (100% incorporation), cultures with a dilution series of chloroquine served as positive control.
The anti-plasmodia activities of the compounds of the general structures 1-3 were studied based on a series of examples according to the above-described methods. The therapeutic index is the ratio of the IC50 values for rat myoblasts (L-6-cells=cytotoxicity) to the IC50 values for Plasmodium falciparum.

## COc1cc(OC)c2c(C)[n+](-c3ccc(C)cc3)c(C)cc2c1 [B]
[1]
  Therapeutic index: 13

## COc1cc2c(c(OC)c1)C(C)=[N+](c1cccc3ccccc13)[C@@H](C)C2 [Compound 2a, (3S)—N,1′-naphthyl-6,8-dimethoxy-1,3-dimethyl-3,4-dihydroisoquinolinium-trifluoro-acetate]
[2]
  Therapeutic index: >180

## COc1cc(OC)c2c(C)[n+](-c3ccc(C(C)C)cc3)c(C)cc2c1 [D]
[1]
  Therapeutic index: 18

## COc1cc(OC)c2c(C)[n+](-c3ccccc3OC)c(C)cc2c1 [E]
[2]
  Therapeutic index: 86

## COc1ccc(-[n+]2c(C)cc3cc(OC)cc(OC)c3c2C)c(OC)c1 [F]
[2]
  Therapeutic index: 72

## COc1cc(OC)c2c(C)[n+](-c3ccc(Cl)cc3)c(C)cc2c1 [G]
[3]
  Therapeutic index: 671

## COc1cc(OC)c2c(C)[n+](-c3ccc(C(F)(F)F)cc3)c(C)cc2c1 [H]
[3]
  Therapeutic index: 324

## COc1cc(OC)c2c(C)[n+](-c3ccc(NC(C)=O)cc3)c(C)cc2c1 [I]
[3]
  Therapeutic index: >841
